# Deep mutational scan of the Zika virus protease

Chain scanned (Zika virus MR766; NS2B from position 2 to 131, then the start of NS3):
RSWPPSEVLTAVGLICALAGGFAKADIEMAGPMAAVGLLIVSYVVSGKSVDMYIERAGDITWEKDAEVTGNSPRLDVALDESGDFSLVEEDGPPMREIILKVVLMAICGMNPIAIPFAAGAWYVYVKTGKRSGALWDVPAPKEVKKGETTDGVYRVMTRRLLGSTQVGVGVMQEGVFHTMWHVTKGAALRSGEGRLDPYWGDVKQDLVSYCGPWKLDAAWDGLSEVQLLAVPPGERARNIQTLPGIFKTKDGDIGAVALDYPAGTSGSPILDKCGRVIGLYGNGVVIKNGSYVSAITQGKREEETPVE

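Pools of virus carrying all single amino acid changes were selected for growth in Huh-7.5 cells. The effect is the change in frequency of a mutant, normalised to wild type, as a mean of three replicate libraries (two for positions 207-308). The aim was to find sites where inhibitor-binding pockets cannot change.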

Scale: log2 effect, wild type = 0; the lower, the more harmful to the virus. Substitutions are written as wild-type residue, site number, new residue. This list holds changes to tryptophan only. Position 1 still belongs to NS2A. In the paper, -1 or higher counts as tolerated.

substitution	log2 effect
V277W	-4.31
I278W	-4.83
G279W	-4.79
L280W	-5.24
Y281W	-4.51
G282W	-4.12
N283W	-4.82
G284W	-6.12
V285W	-4.76
V286W	-5.08
I287W	-0.55
K288W	-4.62
N289W	-4.58
G290W	-5.65
S291W	-4.89
Y292W	-2.97
V293W	-4.72
S294W	-4.57
A295W	-4.97
I296W	-4.58
T297W	-4.69
Q298W	-4.52
G299W	-4.20
K300W	-4.04
R301W	-4.12
E302W	-0.59
E303W	-0.84
E304W	0.01
T305W	-1.40
P306W	-2.96
V307W	-3.33
E308W	-2.28

The last 4 entries again:

| substitution | log2 effect |
|---|---|
| T305W | -1.40 |
| P306W | -2.96 |
| V307W | -3.33 |
| E308W | -2.28 |

The region was split into three libraries (1-103, 104-206, 207-308). Six mutants with high scores were retested singly and none clearly outgrew wild type, so positive values are not proof of better growth.

Values reported by Ni et al. 2025 (doi:10.1038/s41467-025-63602-z).